According to patent publication US20250049831A1, “ANTIVIRAL USE OF BISE[…], AND BISEPOXYLIGNAN COMPOSITION AND PREPARATION OF BISE[…]” (priority 2021, published 2025):
“And” between values parts separate entries of the source, which are not always exact repeats. Identical values can stand only once. Like-named read-outs stand apart in the source and are kept apart here.

What was measured:
influenza virus [1] = type: in vivo, Kunming mice; settings: low dose 3.25 mg/kg; for Hemagglutination titer inhibition rate (%): Day 5; for Hemagglutination titer: lung suspension
parainfluenza virus [2] = type: in vivo, Kunming mice; settings: low dose 3.25 mg/kg; for Hemagglutination titer inhibition rate (%): Day 5; for Hemagglutination titer: lung suspension, Day 5, […]
influenza virus [3] = tested on: influenza virus
parainfluenza virus [4] = tested on: parainfluenza virus
[5] = influenza virus 15LD50, high dose 13.0 mg/kg gavage once a day 5 days
[6] = influenza virus 15LD50, low dose 3.25 mg/kg gavage once a day 5 days
[7] = parainfluenza virus 15LD50, high dose 13.0 mg/kg gavage once a day 5 days, listed as Lianqiaoxinside, 13 mg/kg
[8] = parainfluenza virus 15LD50, low dose 3.25 mg/kg gavage once a day 5 days, listed as Lianqiaoxinside, 3.25 mg/kg
[9] = parainfluenza virus 15LD50, high dose 13.0 mg/kg gavage once a day 5 days
[10] = parainfluenza virus 15LD50, low dose 3.25 mg/kg gavage once a day 5 days
[11] = influenza virus 15LD50, 19.5 mg/kg gavage once a day 5 days
[12] = parainfluenza virus 15LD50, 19.5 mg/kg gavage once a day 5 days

COc1cc(O)cc(C2OCC3C(c4ccc(OC5OC(CO)C(O)C(O)C5O)c(OC)c4)OCC23)c1 [Serial No. 1, (7,8,7′,8′)-7,7′-bisepoxy-5′-hydroxy-3,3′hydroxy-bismethoxylignan, 4-O-β-D-glucoside]
Hemagglutination titer inhibition rate (%) (influenza virus [1]): 38.43% | Hemagglutination titer (influenza virus [1]; Day 5, titer (InX)): 21.84 ± 0.511 | Hemagglutination titer inhibition rate (%) (parainfluenza virus [2]): 32.84% | Hemagglutination titer (parainfluenza virus [2]): 23.25 ± 0.847 | Lung index (X ± S) (influenza virus [3]; [5]): 1.169 ± 0.623 | Lung index inhibition rate (%) (influenza virus [3]; [5]): 22.27% | Lung index (X ± S) (influenza virus [3]; [6]): 1.185 ± 0.379 | Lung index inhibition rate (%) (influenza virus [3]; [6]): 21.21% | Lung index (X ± S) (parainfluenza virus [4]; [7]): 1.270 ± 0.863 and 1.267 ± 0.015 | Lung index inhibition rate (%) (parainfluenza virus [4]; [7]): 20.77% and 20.96% | Lung index (X ± S) (parainfluenza virus [4]; [8]): 1.372 ± 0.115 and 1.374 ± 0.848 | Lung index inhibition rate (%) (parainfluenza virus [4]; [8]): 14.41% and 14.29%

COc1cc([C@H]2OC[C@H]3[C@@H]2CO[C@H]3c2ccc(OC)c(OC)c2)ccc1O [Serial No. 3, phillygenin]
Hemagglutination titer inhibition rate (%) (influenza virus [1]): 37.78% | Hemagglutination titer (influenza virus [1]; Day 5, […]): 22.07 ± 0.455 | Hemagglutination titer inhibition rate (%) (parainfluenza virus [2]): 32.21% | Hemagglutination titer (parainfluenza virus [2]): 23.47 ± 0.893 | Lung index (X ± S) (parainfluenza virus [4]; [9]): 1.277 ± 0.056 | Lung index inhibition rate (%) (parainfluenza virus [4]; [9]): 20.34% | Lung index (X ± S) (parainfluenza virus [4]; [10]): 1.379 ± 0.560 | Lung index inhibition rate (%) (parainfluenza virus [4]; [10]): 13.97%

COc1ccc([C@H]2OC[C@H]3[C@@H]2CO[C@H]3c2ccc(O[C@@H]3O[C@H](CO)[C@@H](O)[C@H](O)[C@H]3O)c(OC)c2)cc1OC [Serial No. 2, phillyrin]
Hemagglutination titer inhibition rate (%) (influenza virus [1]): 38.31% | Hemagglutination titer (influenza virus [1]; Day 5, […]): 21.88 ± 0.639 | Hemagglutination titer inhibition rate (%) (parainfluenza virus [2]): 32.81% | Hemagglutination titer (parainfluenza virus [2]): 23.26 ± 0.219

CCOC(=O)C1=C[C@@H](OC(CC)CC)[C@H](NC(C)=O)[C@@H](N)C1 [Oseltamivir phosphate, reference compound]
Lung index (X ± S) (influenza virus [3]; [11]): 1.188 ± 0.156 | Lung index inhibition rate (%) (influenza virus [3]; [11]): 21.01% | Lung index (X ± S) (parainfluenza virus [4]; [12]): 1.315 ± 0.623 | Lung index inhibition rate (%) (parainfluenza virus [4]; [12]): 17.97%
